Here are results for 1 compound from ChEMBL document CHEMBL6134861 (J Med Chem, 2025).

Protein sequences, listed by entry. Tags and fused reporters are not part of them. Residues count along the entry.
UniProt Q05941, 23-502 limits assumed: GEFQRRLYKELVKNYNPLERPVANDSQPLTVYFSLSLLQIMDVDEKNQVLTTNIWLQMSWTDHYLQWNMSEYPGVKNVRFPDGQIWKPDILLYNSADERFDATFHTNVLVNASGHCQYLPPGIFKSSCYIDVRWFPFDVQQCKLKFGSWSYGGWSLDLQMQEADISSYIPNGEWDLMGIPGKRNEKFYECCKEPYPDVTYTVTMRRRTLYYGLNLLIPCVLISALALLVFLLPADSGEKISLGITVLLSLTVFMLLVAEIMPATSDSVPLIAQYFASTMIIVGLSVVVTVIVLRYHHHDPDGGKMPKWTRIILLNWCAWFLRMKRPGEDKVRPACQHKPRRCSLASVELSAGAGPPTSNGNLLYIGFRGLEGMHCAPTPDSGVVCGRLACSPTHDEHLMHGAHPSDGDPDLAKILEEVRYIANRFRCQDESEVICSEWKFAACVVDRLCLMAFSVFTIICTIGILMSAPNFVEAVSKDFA
UniProt P04757, 26-499 limits assumed: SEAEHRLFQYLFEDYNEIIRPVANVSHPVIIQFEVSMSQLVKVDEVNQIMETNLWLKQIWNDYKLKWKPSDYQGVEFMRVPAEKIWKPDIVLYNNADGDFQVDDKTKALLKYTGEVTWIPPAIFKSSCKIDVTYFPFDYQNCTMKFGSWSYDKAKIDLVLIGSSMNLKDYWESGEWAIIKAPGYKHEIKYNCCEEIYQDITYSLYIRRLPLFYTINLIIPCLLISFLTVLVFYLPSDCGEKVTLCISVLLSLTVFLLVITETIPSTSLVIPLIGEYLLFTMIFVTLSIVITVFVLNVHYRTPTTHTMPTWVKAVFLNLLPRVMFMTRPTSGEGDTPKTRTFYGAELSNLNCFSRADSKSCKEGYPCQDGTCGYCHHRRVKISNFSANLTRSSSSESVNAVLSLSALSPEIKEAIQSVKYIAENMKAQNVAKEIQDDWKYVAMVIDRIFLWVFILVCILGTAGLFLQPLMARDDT
UniProt P12390, 25-500 limits assumed: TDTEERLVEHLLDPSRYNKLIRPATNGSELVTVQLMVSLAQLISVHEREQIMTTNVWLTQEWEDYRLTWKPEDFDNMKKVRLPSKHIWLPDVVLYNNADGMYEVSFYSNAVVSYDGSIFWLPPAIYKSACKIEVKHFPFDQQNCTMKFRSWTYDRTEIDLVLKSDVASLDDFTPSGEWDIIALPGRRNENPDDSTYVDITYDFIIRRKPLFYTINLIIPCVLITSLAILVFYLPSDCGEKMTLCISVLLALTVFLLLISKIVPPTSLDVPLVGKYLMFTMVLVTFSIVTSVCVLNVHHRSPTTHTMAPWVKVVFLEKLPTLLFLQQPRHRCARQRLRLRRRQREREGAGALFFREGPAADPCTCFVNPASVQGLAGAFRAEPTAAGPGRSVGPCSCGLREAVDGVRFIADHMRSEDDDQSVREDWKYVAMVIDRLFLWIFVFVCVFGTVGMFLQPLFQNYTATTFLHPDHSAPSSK
UniProt P12392, 21-495 limits assumed: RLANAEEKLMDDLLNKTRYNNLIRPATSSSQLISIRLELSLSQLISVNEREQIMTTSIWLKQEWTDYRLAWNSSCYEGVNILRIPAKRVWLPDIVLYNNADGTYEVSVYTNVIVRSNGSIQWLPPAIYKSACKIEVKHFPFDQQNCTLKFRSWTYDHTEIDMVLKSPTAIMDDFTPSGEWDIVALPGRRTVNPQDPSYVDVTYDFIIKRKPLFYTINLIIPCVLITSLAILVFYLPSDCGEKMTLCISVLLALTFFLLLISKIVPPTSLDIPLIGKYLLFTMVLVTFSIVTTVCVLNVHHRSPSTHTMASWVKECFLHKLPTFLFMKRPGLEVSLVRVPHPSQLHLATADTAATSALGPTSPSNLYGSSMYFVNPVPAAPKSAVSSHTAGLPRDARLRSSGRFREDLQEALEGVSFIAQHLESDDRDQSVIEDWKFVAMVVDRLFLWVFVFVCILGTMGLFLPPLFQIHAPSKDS
UniProt P43143, 31-493 limits assumed: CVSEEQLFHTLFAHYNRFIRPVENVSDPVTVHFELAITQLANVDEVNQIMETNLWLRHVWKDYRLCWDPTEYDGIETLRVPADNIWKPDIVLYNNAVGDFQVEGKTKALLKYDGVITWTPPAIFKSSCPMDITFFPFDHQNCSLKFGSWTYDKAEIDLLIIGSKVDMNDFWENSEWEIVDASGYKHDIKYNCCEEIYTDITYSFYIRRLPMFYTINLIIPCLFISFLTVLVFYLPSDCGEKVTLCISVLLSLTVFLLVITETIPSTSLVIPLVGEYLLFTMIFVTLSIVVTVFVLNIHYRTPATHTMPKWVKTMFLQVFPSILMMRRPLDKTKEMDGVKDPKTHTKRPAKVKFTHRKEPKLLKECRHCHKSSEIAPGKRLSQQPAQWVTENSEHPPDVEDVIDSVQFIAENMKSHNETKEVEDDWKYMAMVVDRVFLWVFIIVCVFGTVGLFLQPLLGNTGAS
UniProt P12389, 28-511 limits assumed: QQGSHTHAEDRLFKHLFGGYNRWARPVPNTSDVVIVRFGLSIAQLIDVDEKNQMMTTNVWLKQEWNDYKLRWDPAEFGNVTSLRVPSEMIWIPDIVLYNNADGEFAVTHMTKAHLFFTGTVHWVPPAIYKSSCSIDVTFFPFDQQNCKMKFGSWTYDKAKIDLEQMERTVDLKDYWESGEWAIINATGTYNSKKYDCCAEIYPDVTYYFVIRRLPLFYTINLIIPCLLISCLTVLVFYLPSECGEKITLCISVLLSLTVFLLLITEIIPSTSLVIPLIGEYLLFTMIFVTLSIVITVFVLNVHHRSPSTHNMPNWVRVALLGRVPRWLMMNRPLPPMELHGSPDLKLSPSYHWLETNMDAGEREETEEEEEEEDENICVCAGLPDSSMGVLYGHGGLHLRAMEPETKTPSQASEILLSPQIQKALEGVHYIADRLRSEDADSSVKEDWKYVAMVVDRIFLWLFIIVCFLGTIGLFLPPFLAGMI
UniProt P09483, 31-630 limits assumed: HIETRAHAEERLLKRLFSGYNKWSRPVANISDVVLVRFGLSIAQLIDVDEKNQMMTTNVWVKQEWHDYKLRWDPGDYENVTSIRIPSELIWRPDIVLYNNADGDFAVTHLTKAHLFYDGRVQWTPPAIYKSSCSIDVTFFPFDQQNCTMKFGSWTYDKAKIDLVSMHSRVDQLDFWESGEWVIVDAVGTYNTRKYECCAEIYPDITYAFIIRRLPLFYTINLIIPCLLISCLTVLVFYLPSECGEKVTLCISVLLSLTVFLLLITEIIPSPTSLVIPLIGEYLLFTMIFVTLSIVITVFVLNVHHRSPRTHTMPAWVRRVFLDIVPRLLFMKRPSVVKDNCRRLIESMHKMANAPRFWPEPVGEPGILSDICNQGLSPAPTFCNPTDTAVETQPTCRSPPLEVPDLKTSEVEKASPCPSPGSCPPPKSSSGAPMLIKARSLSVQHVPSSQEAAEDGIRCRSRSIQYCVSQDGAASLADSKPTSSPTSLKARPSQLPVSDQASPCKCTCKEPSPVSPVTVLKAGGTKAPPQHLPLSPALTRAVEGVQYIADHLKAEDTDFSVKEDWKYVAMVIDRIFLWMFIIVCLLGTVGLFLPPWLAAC
UniProt P43144, 26-479 limits assumed: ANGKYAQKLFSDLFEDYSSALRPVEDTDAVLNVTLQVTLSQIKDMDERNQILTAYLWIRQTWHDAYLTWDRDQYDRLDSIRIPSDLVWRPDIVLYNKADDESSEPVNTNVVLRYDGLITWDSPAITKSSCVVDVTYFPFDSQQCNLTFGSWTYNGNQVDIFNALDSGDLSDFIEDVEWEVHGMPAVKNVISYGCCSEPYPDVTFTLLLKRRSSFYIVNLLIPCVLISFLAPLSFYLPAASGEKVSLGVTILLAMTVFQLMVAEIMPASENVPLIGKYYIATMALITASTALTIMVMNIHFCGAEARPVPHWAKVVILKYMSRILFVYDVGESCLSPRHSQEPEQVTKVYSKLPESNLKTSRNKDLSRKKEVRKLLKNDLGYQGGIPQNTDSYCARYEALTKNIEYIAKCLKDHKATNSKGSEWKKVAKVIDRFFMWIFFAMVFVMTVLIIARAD
UniProt Q9JLB5, 25-447 limits assumed: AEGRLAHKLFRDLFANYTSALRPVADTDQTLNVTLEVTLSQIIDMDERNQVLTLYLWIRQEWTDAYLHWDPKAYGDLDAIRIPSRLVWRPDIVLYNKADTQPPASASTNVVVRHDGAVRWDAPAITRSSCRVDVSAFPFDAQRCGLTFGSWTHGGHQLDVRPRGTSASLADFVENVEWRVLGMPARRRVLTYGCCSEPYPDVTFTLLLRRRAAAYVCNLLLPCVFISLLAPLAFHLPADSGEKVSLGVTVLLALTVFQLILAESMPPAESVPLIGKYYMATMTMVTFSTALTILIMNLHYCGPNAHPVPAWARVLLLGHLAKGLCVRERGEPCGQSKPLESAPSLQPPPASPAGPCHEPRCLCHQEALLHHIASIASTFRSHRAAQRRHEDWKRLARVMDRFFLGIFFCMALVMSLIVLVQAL

The structures appear in SMILES notation. pIC50: −log10 of the molar value.

What all share (conditions): oocyte
Experiment [1] has as its target Neuronal acetylcholine receptor subunit alpha-7 (Rattus norvegicus, UniProt Q05941). As to the kind of experiment: Inhibition of rat alpha7 nAChR expressed in Xenopus laevis oocytes assessed as inhibition of acetylcholine-induced current by two electrode voltage-clamp assay. On the technique in general: In two-electrode clamp one electrode senses voltage and the other passes current.

Experiment [2] addresses Neuronal acetylcholine receptor; alpha3/beta2 (Rattus norvegicus, UniProt P04757+P12390). As to the kind of experiment: Inhibition of rat alpha3/beta2 nAChR expressed in Xenopus laevis oocytes assessed as inhibition of acetylcholine-induced current by two electrode voltage-clamp assay.
The target in experiment [3] is Neuronal acetylcholine receptor; alpha3/beta4 (Rattus norvegicus, UniProt P04757+P12392). As to the kind of experiment: Inhibition of rat alpha3/beta4 nAChR expressed in Xenopus laevis oocytes assessed as inhibition of acetylcholine-induced current by two electrode voltage-clamp assay.
The target of experiment [4] is Nicotinic acetylcholine receptor alpha6/alpha3/beta4 (Rattus norvegicus, UniProt P04757+P12392+P43143). As to the kind of experiment: Inhibition of rat alpha6/alpha3/beta4 nAChR expressed in Xenopus laevis oocytes assessed as inhibition of acetylcholine-induced current by two electrode voltage-clamp assay.
Experiment [5] addresses Neuronal acetylcholine receptor; alpha2/beta2 (Rattus norvegicus, UniProt P12389+P12390). The experiment in a line: Inhibition of rat alpha2/beta2 nAChR expressed in Xenopus laevis oocytes assessed as inhibition of acetylcholine-induced current by two electrode voltage-clamp assay.
The target of experiment [6] is T1, Neuronal acetylcholine receptor; alpha4/beta2 (Rattus norvegicus, UniProt P09483+P12390). The experiment in a line: Inhibition of rat alpha4/beta2 nAChR expressed in Xenopus laevis oocytes assessed as inhibition of acetylcholine-induced current by two electrode voltage-clamp assay.
In experiment [7] the target is T1, Neuronal acetylcholine receptor; alpha4/beta2. As to the kind of experiment: Inhibition of rat alpha4/beta4 nAChR expressed in Xenopus laevis oocytes assessed as inhibition of acetylcholine-induced current by two electrode voltage-clamp assay.
Experiment [8] addresses Nicotinic acetylcholine receptor alpha9/alpha10 (Rattus norvegicus, UniProt P43144+Q9JLB5). As to the kind of experiment: Inhibition of rat alpha9/alpha10 nAChR expressed in Xenopus laevis oocytes assessed as inhibition of acetylcholine-induced current by two electrode voltage-clamp assay.

Regarding `CC[C@H](C)[C@@H]1NC(=O)[C@H](CC(=O)O)NC(=O)[C@@H]2CCCN2C(=O)[C@H](CC(N)=O)NC(=O)[C@H](CCC(N)=O)NC(=O)[C@H](CC(C)C)NC(=O)[C@H]([C@@H](C)CC)NC(=O)[C@@H]2CSSC[C@H](NC(=O)C(N)CC(=O)O)C(=O)N[C@@H](CSSC[C@@H](C(N)=O)NC1=O)C(=O)N[C@@H](CO)C(=O)N[C@@H](C)C(=O)N1CCC[C@H]1C(=O)N1CCC[C@H]1C(=O)N2` (stereo partly drawn), the pIC50 (usually the negative decadic logarithm of the IC50, by convention in mol/L) in experiment [1] is 7.45; in experiment [2], 5.74; in experiment [3], 5.42; in experiment [4], 5.68; in experiment [5], less than 5.00; in experiment [6], less than 5.00. Further, the pIC50 in experiment [7] and in experiment [8] was less than 5.00 throughout.
